Compound potency records, mixed from different reports. Data source: NIAID ChemDB in PubChem.

Shared fields: target-level tests; agent: Hepatitis C virus; target: Nonstructural protein 5B; measure: inhibition

Inhibition is in % at the dose shown (toxicity tests: loss of growth or viability). Lines come from different laboratories, so protocols vary. Blank or dashed fields: not listed here.

compound | strain or isolate | dose | result
CSc1nc(Nc2ccc(N3CCOCC3)cc2)cc(N2CCN(CC(=O)NCCN(C(C)C)C(C)C)CC2)n1 |  | 1 µg/mL | 68%
Cc1cc(-c2ccccc2)nc(N2C(=O)CSC2c2c(Cl)cccc2Cl)n1 | NS5B | 250 µM | 76.3%
Nc1ncc2ncn([C@@H]3CO[C@H](COP(=O)(O)OP(=O)(O)OP(=O)(O)O)O3)c2n1 |  | 100 µM | 44%
Cc1cc(C(F)(F)F)nc(N2C(=O)CSC2c2c(Cl)cccc2Cl)n1 | NS5B | 250 µM | 75.6%
CSc1nc(Nc2ccc(N3CCOCC3)cc2)cc(N2CCN(CC(=O)N(C)C)CC2)n1 |  | 1 µg/mL | 70%
NS(=O)(=O)c1ccc(CCNc2cc(C(=O)Nc3ccc4cn[nH]c4c3)c(F)cc2F)cc1 |  | 10 µg/mL | 70%
COc1nc(Nc2ccc3[nH]ncc3c2)nc(N2CCOCC2)n1 |  | 1 µg/mL | 52%
Cc1cn([C@H]2CO[C@@H](COP(=O)(O)OP(=O)(O)OP(=O)(O)O)O2)c(=O)[nH]c1=O |  | 100 µM | 47%
CCN(CC)C(=O)CN1CCN(c2cc(Nc3ccc(N4CCOCC4)cc3)nc(SC)n2)CC1 |  | 1 µg/mL | 68%
COc1nc(Nc2ccc3cn[nH]c3c2)nc(N2CCN(C)CC2)n1 |  | 1 µg/mL | 0%
CC(Cc1ccccn1)Nc1cc(C(=O)Nc2ccc3cn[nH]c3c2)c(F)cc1F |  | 10 µg/mL | 46%
O=C1CSC(c2ccc(F)cc2)N1c1ccccn1 | NS5B | 250 µM | 68.7%
CSc1nc(Nc2ccc(N3CCOCC3)cc2)cc(N2CCN(CC(=O)NC3CC3)CC2)n1 |  | 1 µg/mL | 68%
O=C(NCCc1ccncc1)c1ccc(S(=O)(=O)Nc2ccc(N3CCOCC3)cc2)cc1 |  | 1 µg/mL | 58%
CCN(CCO)c1cc(C(=O)Nc2ccc3cn[nH]c3c2)c(F)cc1F |  | 10 µg/mL | 37%
CSc1nc(Nc2ccc(N3CCOCC3)cc2)cc(N2CCN(CC(=O)N3CCCCC3)CC2)n1 |  | 1 µg/mL | 74%
COc1nc(NCCCn2ccnc2)nc(Nc2ccc3cn[nH]c3c2)n1 |  | 1 µg/mL | 41%
CSc1nc(Nc2ccc(N3CCOCC3)cc2)cc(N2CCN(CC(=O)N3CCC(C)CC3)CC2)n1 |  | 1 µg/mL | 67%
O=C(Nc1ccc2cn[nH]c2c1)c1cc(NCCO)c(F)cc1F |  | 0.1 µg/mL | 20%
CNC(=O)CN1CCN(c2nc(Nc3ccc4cn[nH]c4c3)nc(OC)n2)CC1 |  | 10 µg/mL | 32%
CSc1nc(Nc2ccc(N3CCOCC3)cc2)cc(N2CCN(CC(=O)NCCCl)CC2)n1 |  | 1 µg/mL | 64%
Nc1ncn([C@@H]2CO[C@H](COP(=O)(O)OP(=O)(O)OP(=O)(O)O)O2)c(=O)n1 |  | 50 µM | 12%
O=C(Nc1ccc2[nH]ncc2c1)c1cc(NCCCn2ccnc2)c(F)cc1F |  | 1 µg/mL | 46%

3 of the rows above, restated:

CSc1nc(Nc2ccc(N3CCOCC3)cc2)cc(N2CCN(CC(=O)N(C)C)CC2)n1 ; dose: 1 µg/mL ; result: 70%
Cc1cc(C(F)(F)F)nc(N2C(=O)CSC2c2c(Cl)cccc2Cl)n1 ; strain or isolate: NS5B ; dose: 250 µM ; result: 75.6%
CCN(CC)C(=O)CN1CCN(c2cc(Nc3ccc(N4CCOCC4)cc3)nc(SC)n2)CC1 ; dose: 1 µg/mL ; result: 68%